Results as given in PMC6268315, “Investigating the Spectrum of Biological Activity of Substituted Quinoline-2-Carboxamides and Their Isosteres ^†” (Molecules, 2012).

System: human monocytic leukemia THP-1 cells
Details: LD50 THP-1 / IC90 marked by * in Table 3

SMILES	SI [LD50/IC90]
O=C(c1ccc2ccccc2n1)N1CCCC1 [Compound 3, 2-(Pyrrolidin-1-ylcarbonyl)quinoline]	>0.90
O=C(NC1CCCCCC1)c1ccc2ccccc2n1 [Compound 7, N-Cycloheptylquinoline-2-carboxamide]	0.56
O=C(NCCc1ccccc1)c1ccc2ccccc2n1 [Compound 11, N-(2-Phenylethyl)quinoline-2-carboxamide]	>0.92
O=C(c1ccc2ccccc2c1)N1CCCC1 [Compound 22, 1-(2-Naphthoyl)pyrrolidine]	>0.90
